From publication PMC8847360, “Broad ultra-potent neutralization of SARS-CoV-2 variants by monoclonal antibodies specific to the tip of RBD” (Cell Discovery, 2022)

Target: SARS-CoV-2 WA1/2020 RBD recombinant protein (SARS-CoV-2, UniProt P0DTC2)
Assay: SPR
Settings: both partners purified

B1: 2G1 Fab (Fab, V domains shown)
VH: EVQLLESGGGQIQPGGSLRLSCAASGFSFISNYMSWVRQAPGKGLEWVSVIYSGGSTFYADSVKGRFTISRDKSKNTLYLQMNSLRAEDTAFYYCARGLIRGIIMTGAFDIWDEGTMVTVSS
VL: QSALTQPPSASGSPGQSVTISCTGTSSDVGGSNYVSWYQQHPGKAPKLMISEVSKRPSGVPDRFSGSKSGNTASLTVSGLQAEDEADYYCSSYAGSNNWVFGGGTKLTVL
- Kd: 410 pM
- koff: 0.00105 s⁻¹
- kon: 2.55e+06 M⁻¹ s⁻¹
